{"source": "patent US20130289246A1", "about": "(VANDERBILT UNIVERSITY, published 2013)", "key": {"[1]": {"molecular_target": "recombinant soluble 1957 H2 HA (A/Japan/305+/1957) (Influenza A virus A/Japan/305+/1957 …)", "test": "ELISA, supernate"}, "[2]": {"molecular_target": "soluble 1999 H1 HA (seasonal 1999 H1N1) (Influenza A virus (H1N1, 1999))", "test": "ELISA, supernate"}, "soluble 2004 H5 HA": {"molecular_target": "soluble 2004 H5 HA (Influenza A virus (H5N1, 2004))", "test": "ELISA, supernate"}, "[3]": {"molecular_target": "T1, recombinant soluble trimeric 2009 H1 HA (A/California/04/2009, wild type) (Influenza A virus A/California/04/2009 …)", "T1 construct": "extracellular domain", "test": "ELISA, supernate"}, "[4]": {"molecular_target": "HA of A/Singapore/1/1957 (H2N2), on VLP (Influenza A virus (H2N2))", "test": "cell-based or functional assay"}, "[5]": {"molecular_target": "HA of A/Japan/305+/1957 (H2N2), wild type, on VLP (Influenza A virus A/Japan/305+/1957 …)", "test": "cell-based or functional assay"}, "[6]": {"molecular_target": "recombinant soluble trimeric 1918 H1 HA (A/South Carolina/1/1918, wild type) (Influenza A virus A/South …, UniProt Q9WFX3 18-529)", "test": "ELISA, supernate"}}}
{"binder": "mAb 8F8 (antibody, V domains shown) VH: EVQLLESGGGVVQPGRSLRLSCAASGFMFSSYVMHWVRQPPGKGLEWVAVIWYDGSKTYFADSMRGRLTVSRDNSKNALYLQMNRLRAEDTAVYYCARQQDSGYSGPEVSYYSHYGMDVWGQGTTVIVS VL: QSVLTQSPSASGTPGRAITISCSGSSSNIGSNPVNWYQQLPGAAPKLLIYADEHRPSGVPDRFSGPKSGTSASLAISGLQSEDEADYYCAAWDDSLSGPAVVFGGGTKLTVLG", "values": [{"measurement": "OD", "setting": "[1]", "value": 1.02, "unit": "OD"}, {"measurement": "OD", "setting": "[2]", "value": 0.081, "unit": "OD"}, {"measurement": "OD", "setting": "soluble 2004 H5 HA", "value": 0.074, "unit": "OD"}, {"measurement": "OD", "setting": "[3]", "value": 0.081, "unit": "OD"}, {"measurement": "HAI activity", "setting": "[4]", "value": 0.05, "unit": "µg/mL"}, {"measurement": "HAI activity", "setting": "[5]", "value": "< 0.2", "unit": "µg/mL"}]}
{"binder": "mAb 7A13 (antibody, V domains shown) VH: QVQLQESAPGLVKPSGTLSLTCAVSGASLSSSDWWTWVRQPPGKGLEWIGEIHHGGSTNSNPSLQSRVTISIDKSKKQFSLKLTSVTVADTAVYYCARAPGADAGPYSENIHHWGQGTLVTVS VL: QLVLTQSPSASASLGASVKLTCTLSSRHSDYAIGWHQQQPGKGPRYLMKLNPDGSHTKGDGIPDRFSGSSSGAERYLTISNLLSEDEADYYCQTWGTGIQVFGGGTRLTVIS", "values": [{"measurement": "HAI activity", "setting": "[4]", "value": "> 20", "unit": "µg/mL"}]}
{"binder": "mAb 11J19 (antibody, V domains shown) VH: EVQLQESGPGLVKPSETLSLSCTVSGGSITRSSYYWGWIRQPPGKGLEWIGNIYYSGTTYYNPSLKSRVTISVDTSKNQFSLKLSSVTAADTAVYYCARLYGSGLDYWGQGTLVTVS VL: DIQLTQSPSFLSASVGDRVTITCRASQGSSRYVAWYQQKPGKAPKLLILAASTLHTGVPSRFSGSGSGTEFTLTISSLQPEDFATYSCQQLNGFLLTFGGGTKVEIKR", "values": [{"measurement": "HAI activity", "setting": "[4]", "value": "> 20", "unit": "µg/mL"}]}
{"binder": "mAb 2G1 (antibody, V domains shown) VH: EVQLVESGAEVKKPGSSVKVSCKASGGTFITHVFTWVRQAPGQGLEWVGGFIAIFGTSNYAQKFQGRVTITADESTSTAYMELTSLTSEDTAVYYCARGISGSYGWFDPWGQGTLVTVS VL: DIQLTQSPSSLSASVGDRVTITCQASQDIRKYLNWYQQKPGKAPNLLIYDASNVKTGVPSRFRGSGSGTDFTFTISSLQPEDIATYYCQQYDNLPITFGQGTRLEIKR", "values": [{"measurement": "HAI activity", "setting": "[5]", "value": "< 0.2", "unit": "µg/mL"}]}
{"binder": "mAb 6J24 (antibody, V domains shown) VH: EVQLVESGGGLVQPGRSLRLSCVGSGFNFDGYAMQWVRQVPGKGLEWVSGISWHSDSTGYADSVRGRFTISRDNAKNSLYLQMDSLRPEDTAFYYCGKSIGHVGGSYRHPIDYWGQGTLVTVS VL: DIQLTQSPSSLSASVGDRVTITCRASQGITDYLAWYQQKPGTIPKLLIYAASTLQSGVPSRFSGGGYGTDFTLTISSLQPEDVATYYCQKYNSAPLTFGGGTKVEIKR", "values": [{"measurement": "OD", "setting": "[6]", "value": 0.083, "unit": "OD"}]}
